Results of unrelated studies side by side (data: NIAID ChemDB).

All rows: whole-cell or culture tests; species: Candida albicans; endpoint: EC50

Blank or dashed fields: not listed here. ECn is the concentration giving n% inhibition of infection, replication or growth. Conditions beyond the fields shown may differ between rows.

compound | strain or isolate | method | value
CCCCCCCCCC(=O)C(C)C(=O)N[C@@H](CC(C)C)C(=O)N[C@H](C)C(=O)N1CCC[C@H]1C(=O)N[C@H](C(=O)N[C@@H](CC)C(=O)NCCO)C(C)C | Day185 | broth dilution | 5.3 µM
COc1cc(CCCOC(=O)c2ccccc2)ccc1O |  |  | 7.05 µg/mL
CCC(C(=O)c1ccc(OC)cc1)c1ccc(Cl)cc1 | 28 strains |  | >256 µg/mL
C[C@H]1O[C@@H](OC[C@H]2CC[C@@](C)(C=O)[C@]2(C)C(=O)O)C[C@@H]2OC(C)(C)O[C@@H]21 | 2005E |  | 162 µM
Cc1cnc(Oc2ccc(Cl)cc2)nc1Oc1ccc(Cl)cc1 |  |  | 16.8 µg/mL
Cc1cc2c(c(O)c1-c1c(C)cc(O)c3c1C(=O)C=CC3=O)C(=O)C=CC2=O |  |  | >20 µg/mL
CC(=O)OCC1C=C(c2ccc(Br)cc2)C(=O)O1 | ATCC 90028 |  | <10 µg/mL
COc1cc2ccnc3c2c(c1OC(=O)c1ccc(OC(F)(F)F)cc1)N(C)C=C3 |  |  | >15 µg/mL
Cc1onc(-c2ccccc2)c1C=O |  |  | >50 µg/mL
COc1cc2ccnc3c2c(c1OC(=O)c1ccc(C(C)(C)C)cc1)N(C)C=C3 |  |  | 6.5 µg/mL
O=C1C[C@H](O)C2(Oc3cccc4cccc(c34)O2)c2cccc(O)c21 |  |  | 12.5 µg/mL
CCC(c1ccc(Cl)cc1)C(O)c1ccc(OC)cc1 | 28 strains |  | >256 µg/mL
CC(C)CC(O)C(=O)O | ATCC 10231 | broth dilution | 18000 µg/mL
COc1ccc(C(=O)C(Cc2ccc(Cl)cc2Cl)c2ccc(OC)cc2)cc1 | 28 strains |  | >256 µg/mL
COc1ccc(Oc2ccnc(Oc3ccc(OC)cc3)n2)cc1 |  |  | 16.4 µg/mL
C[C@@H]1CCC2(OC1)OC1CC3C4C[C@H](O)[C@H]5C[C@@H](O)CC[C@]5(C)C4CC(=O)[C@]3(C)C1[C@@H]2C | ATCC 90028 |  | 7 µg/mL
COc1cc2ccnc3c2c(c1OC(=O)N1CCCC1)N(C)C=C3 |  |  | >15 µg/mL
C[C@@]1(C=O)CC[C@H](CO)[C@@]1(C)C(=O)O | 2005E |  | 45 µM
C[C@H]1[C@H](O)[C@@H](C)/C=C/C=C/C=C/C=C/C=C/C=C/C=C/[C@H](O[C@@H]2O[C@H](C)[C@@H](O)[C@H](N)[C@@H]2O)C[C@@H]2O[C@](O)(C[C@@H](O)C[C@@H](O)CC[C@H](O)[C@@H](O)C[C@@H](O)CC(=O)O[C@H]1C)C[C@H](O)[C@H]2C(=O)O | purple | broth dilution | 1 µM
Clc1ccc(Nc2ccnc(Nc3ccc(Cl)cc3)n2)cc1 |  |  | 0.62 µg/mL
COc1ccc(C(C(Cc2ccc(Cl)cc2Cl)c2ccc(Cl)cc2)n2ccnc2)cc1 | 28 strains |  | <256 µg/mL
CC(=O)c1c(O)cc(O)c(C(C)=O)c1O |  |  | >20 µg/mL
CCN(CC)C(=O)Oc1c(OC)cc2ccnc3c2c1N(C)C=C3 |  |  | >15 µg/mL
Cc1ccc(-c2cc(C=O)no2)cc1 |  |  | 37.36 µg/mL
COc1cc2ccnc3c2c(c1OC(=O)c1ccc(C#N)cc1)N(C)C=C3 |  |  | >15 µg/mL
COc1c(O)c2c(=O)cc(OC)c3c4c(OC)cc(=O)c5c(O)c(OC)c6c(c(c1CC(C)=C6OC(C)=O)c23)c54 |  |  | 5 µg/mL
O=Cc1cc(-c2c(Cl)cccc2Cl)no1 |  |  | 17.42 µg/mL
Brc1ccc(Oc2ccnc(Oc3ccc(Br)cc3)n2)cc1 |  |  | 23.6 µg/mL
CC(C)CCOC[C@H]1CC[C@@](C)(C=O)[C@]1(C)C(=O)O | 2005E |  | 185 µM
CC(C)CC(=O)c1c(O)cc(O)c(C=O)c1O |  |  | >20 µg/mL
O=Cc1cc(-c2ccc(F)cc2)on1 |  |  | 28.81 µg/mL
CC(C)=CCc1c(O)c(C=O)c(O)c(C(=O)/C(C)=C/O)c1O |  |  | >20 µg/mL
O=Cc1cc(-c2ccc(Cl)cc2Cl)no1 |  |  | 24.91 µg/mL
NC[C@@H]1O[C@H](O[C@H]2[C@@H](O)[C@H](O[C@@H]3[C@@H](O)[C@H](N)C[C@H](N)[C@H]3O[C@H]3O[C@H](CN)[C@@H](O)[C@H](O)[C@H]3N)O[C@@H]2CO)[C@H](N)[C@@H](O)[C@@H]1O |  |  | 1.1 µg/mL
Cc1onc(-c2ccc(OCc3ccccc3)cc2)c1C=O |  |  | >50 µg/mL
CCCCCCCCCC(=O)[C@@H](C)C(=O)N[C@@H](CC(C)C)C(=O)N[C@H](C)C(=O)N1CCC[C@H]1C(=O)N[C@H](C(=O)N[C@H]1CSCCNC1=O)C(C)C | Day185 | broth dilution | 3.4 µM
Cc1onc(-c2cccc(Br)c2)c1C=O |  |  | 27.07 µg/mL
CCC(c1ccc(OC)cc1)C(O)c1ccc(OC)cc1 | 28 strains |  | >256 µg/mL

For reference, 2 entries again:

compound,strain or isolate,method,value
COc1ccc(Oc2ccnc(Oc3ccc(OC)cc3)n2)cc1,,,16.4 µg/mL
CCC(C(=O)c1ccc(OC)cc1)c1ccc(Cl)cc1,28 strains,,>256 µg/mL